Laboratory results: US20230381077A1, “Antibacterial And Deodorizing Composition, And Preparation Method Therefor” (LG Chem, Ltd., priority 2021, published 2023)

What was measured:
[1] = test system: E. coli; experiment: Antibacterial power measurement of first compound (bacterial inhibition rate, broth, absorbance 600 nm); assay type: cell-based; details: 0.01 g first compound in 25 ml broth, 3,000 CFU/ml, 35° C. for 16 hours
[2] = test system: Proteus mirabilis; experiment: as above; assay type: cell-based; details: 0.01 g first compound in 25 ml broth, 3,000 CFU/ml, 35° C. for 16 hours

Question: With CCCCCCCCCCCC[N+](C)(CCO)CCO as the molecule, how does the “Bacterial inhibition rate (%) E. Coli” value [1] read?
Answer: 99.1%

Question: And the “Bacterial inhibition rate (%) Proteus mirabilis” value [2]?
Answer: 99.9%
